Results of unrelated studies side by side (data: NIAID ChemDB).

Shared fields: growth or infection tests; organism: Mycobacterium tuberculosis

Percent inhibition refers to the dose given; in toxicity tests it is the harm to the cells. MIC bound comes from a single tested concentration. ECn: concentration that inhibits the pathogen or its effect by n%. An empty or dashed field is not shown. Neighbouring rows are from separate reports. MIC50, MIC90 and the like: level of inhibition, or share of isolates inhibited.

compound | changes | endpoint | strain or isolate | cell line | tested at | read by | setting | value
NC(=O)c1ncc[nH]c1=O |  | inhibition | H37Rv |  | 12.5 µg/mL | BACTEC |  | 0%
O=C1c2ccccc2-n2c1nc1ccc([N+](=O)[O-])cc1c2=O |  | MIC | MDR 10038 |  |  |  |  | >10 µg/mL
CCCCc1nc2ccc(F)cc2c2nc3ccccc3n12 |  | MIC99 | H37Rv |  |  | resazurin |  | 12.5 µg/mL
Cc1c(Cc2cccc(Cl)c2)c(=O)n2c([nH]c3ccccc32)c1C#N |  | MIC | H37Rv |  |  | broth dilution |  | >128 µg/mL
O=C(CNC(=O)Nc1ccc(Cl)c(Cl)c1)N/N=C/c1ccccc1F |  | MIC bound | H37Rv |  |  | BACTEC |  | >12.5 µg/mL
Clc1ccc(Nc2cc3nc4ccccc4n(-c4ccc(Cl)c(Cl)c4)c-3cc2=NC2CCNCC2)cc1Cl |  | MIC | H37Rv |  |  |  |  | 0.12 µg/mL
S=c1[nH]c2ccccc2[nH]1 |  | MIC | My 331/88 |  |  |  |  | 500 µM
CN(C)CC1CCCC(CN2CCCCC2)C1=O |  | inhibition | H37Rv |  | 12.5 µg/mL | BACTEC |  | 98%
C=CC(O)C#CC#CC(O)C1OC1CCCCCCC |  | MIC90 | H37Rv |  |  | resazurin |  | >60 µg/mL
CCCc1[nH]n(-c2ccccc2)c(=O)c1N=Nc1ccc(Cl)cc1 |  | MIC | H37Rv |  |  | BACTEC |  | ≥12.8 µg/mL
O=C(Oc1ccc(Cl)cc1C(=O)Nc1ccc(Cl)c(Cl)c1)c1ccccc1 |  | MIC | Praha 1 |  |  | broth dilution | 14 d | 0.5 µM
CCCCSc1nc2ccccc2[nH]1 |  | MIC | My 331/88 |  |  |  |  | >125 µM
O=C1NC(=S)N/C1=C\c1ccc(OCc2ccc(Cl)cc2)cc1 |  | inhibition | H37Rv |  | 6.25 µg/mL |  |  | 70%
Cc1cc(=O)oc2ccc(OCC(=O)Nn3c(-c4ccccc4)ccc3-c3ccccc3)cc12 |  | inhibition | H37Rv (ATCC 27294) |  | 100 µg/mL | resazurin |  | 97%
O=C(Nc1nnc(-c2ccc3c(c2)CCCC3)o1)c1ccc(CC=S)cc1 |  | EC90 | H37Rv |  |  | agar |  | 1.93 µg/mL
CC(C)N=c1cc2n(-c3ccc(Cl)cc3)c3ccccc3nc-2cc1Nc1ccc(Cl)cc1 |  | MIC | 2218 (SM INH THA-RES) |  |  |  |  | 0.5 µg/mL
O=C1c2cc(F)ccc2-n2c1nc1cccc(F)c1c2=O |  | MIC | MDR 10038 |  |  |  |  | 5 µg/mL
Cc1ccc2nc(C)n3c4ccccc4nc3c2c1 | INH resistant | MIC99 | H37Rv |  |  | resazurin |  | 1.56 µg/mL
Fc1cccc(Cl)c1CSc1nc2ccccc2[nH]1 |  | MIC | My 331/88 |  |  |  |  | 62 µM
COc1ccc(-c2csc(-n3c(C)ccc3C)n2)cc1OC |  | MIC | H37Rv |  |  | resazurin |  | 50 µg/mL
COc1ccccc1C(=O)Nc1ccc(Cl)c(C(=O)OC(C)C)c1 |  | MIC bound | H37Rv |  |  | BACTEC |  | >12.5 µg/mL
Brc1ccc(-c2csc(-n3cccc3)n2)cc1 |  | MIC | H37Rv |  |  | resazurin |  | 0.8 µg/mL
CO[C@H]1/C=C/O[C@@]2(C)Oc3c(C)c(O)c4c(O)c(c(/C=N/N5CCN(C)CC5)c(O)c4c3C2=O)NC(=O)/C(C)=C\C=C\[C@H](C)[C@H](O)[C@@H](C)[C@@H](O)[C@@H](C)[C@H](OC(C)=O)[C@@H]1C | inhA mutant isoniazid resistant | MIC | HUG.MB.6726 |  |  | resazurin / absorbance |  | 0.001 µg/mL
O=C(Nc1ccc2c(O)cc(S(=O)(=O)[O-])cc2c1)Nc1ccc2c(O)c(N=Nc3ccc4cc(S(=O)(=O)[O-])ccc4c3)c(S(=O)(=O)[O-])cc2c1.[Na+].[Na+].[Na+] |  | MIC bound | H37Rv |  |  | BACTEC |  | >12.5 µg/mL
CC1(O)CC(c2ccccc2)SC(c2ccccc2)=N1 |  | inhibition | H37Rv |  | 6.25 µg/mL |  |  | 6%
Brc1ccc(CSc2nc3ccccc3[nH]2)cc1 |  | MIC | My 331/88 |  |  |  |  | >125 µM
CCOC(=O)C(C(=O)OCC)=S1c2ccccc2Sc2ccccc21 |  | MIC bound | H37Rv |  |  | BACTEC |  | >12.5 µg/mL
CCCCc1nc2ccc(C)cc2c2nc3ccccc3n12 |  | MIC99 | H37Rv |  |  | resazurin |  | 25 µg/mL
NC1=C([N+](=O)[O-])NC2OC[C@@H](OCc3ccc(OC(F)(F)F)cc3)CN12 |  | MIC | wtH37Rv |  |  | broth dilution |  | >100 µM
C/C(=C\c1ccccc1)C1NC(=S)NC1=O |  | EC50 | H37Rv |  |  |  |  | <6.25 µg/mL
O=C(Nn1c(-c2ccccc2)ccc1-c1ccccc1)c1ccncc1 |  | inhibition | H37Rv (ATCC 27294) |  | 100 µg/mL | resazurin |  | 100%
CC1COc2c(N3CCN(C)CC3)c(F)cc3c(=O)c(C(=O)O)cn1c23 |  | MIC | 3181-5 |  |  |  |  | 2 µg/mL
Cc1ccc(-c2c(C(O)c3ccccc3)c3cc(C#N)ccn3c2-c2ccc(C)cc2)cc1 |  | inhibition | H37Rv | VERO | 6.25 µg/mL |  |  | 100%
CCC1CN(c2c(F)cc3c(=O)c(C(=O)O)cn(C4CC4)c3c2OC)CCN1 |  | MIC | Isolate TN7811 |  |  |  |  | 0.1 µg/mL
CC1(O)CCSC(c2ccccc2)=N1 |  | inhibition | H37Rv |  | 6.25 µg/mL |  |  | 19%
CC(=O)c1ccn2c(-c3ccccc3)c(-c3ccccc3)c(C(O)c3ccccc3)c2c1 |  | inhibition | H37Rv |  | 6.25 µg/mL |  |  | 18%
CCCc1nc2ccc(Br)cc2c2nc3ccccc3n12 |  | MIC99 | H37Rv |  |  | resazurin |  | 1.56 µg/mL
Cc1cccc2nc3n(c(=O)c12)-c1ccc(F)cc1C3=O |  | MIC | H37Rv |  |  |  |  | 1 µg/mL
CCCCC(=O)c1ccn2c(-c3ccccc3)c(-c3ccccc3)c(C(O)c3ccccc3)c2c1 |  | inhibition | H37Rv |  | 6.25 µg/mL |  |  | 40%
O=C1NC(=S)N/C1=C/c1cccc(Oc2ccccc2)c1 |  | EC50 | H37Rv |  |  |  |  | <6.25 µg/mL
CN(C)c1ccc(/C=N/NC(=O)c2ccc(F)cc2)cc1 |  | MIC | H37Rv |  |  |  |  | >6.25 µg/mL
O=C(Oc1cc(Cl)ccc1C(=O)Nc1ccc(C(F)(F)F)cc1)c1ccccc1 |  | MIC | 331/88 (H37Rv) |  |  | broth dilution | 21 d | 2 µM
COc1cc2c(cc1Oc1ccc(OC)c3c1CC1c4c(cc(OC)c(OC)c4-3)CCN1C)CC1c3c(cc(OC)c(OC)c3-2)CCN1C |  | MIC | PAS-R |  |  |  |  | 12.5 µg/mL
Cc1ccc(-c2ccccc2)n1NC(=O)c1ccncc1 |  | EC50 | H37Rv |  |  | turbidity |  | 4.92 µg/mL
CCCc1nc2ccc(F)cc2c2nc3ccccc3n12 |  | MIC99 | H37Rv |  |  | resazurin |  | 25 µg/mL
N#Cc1ccn2c(-c3ccccc3)c(-c3ccccc3)c(C(O)C3CCCCC3)c2c1 |  | MIC | H37Rv |  |  |  |  | >6.25 µg/mL
O=C(Oc1ccc(Cl)cc1C(=O)Nc1ccc(C(F)(F)F)cc1)c1ccccc1 |  | MIC | Praha 131 |  |  | broth dilution | 21 d | 0.5 µM
COc1cc(-c2csc(-n3c(C)ccc3C)n2)cc(OC)c1OC |  | MIC | H37Rv |  |  | resazurin |  | 12.5 µg/mL
CC(C)c1ccc(/C=C2/NC(=S)NC2=O)cc1 |  | inhibition | H37Rv |  | 6.25 µg/mL |  |  | 89%
COc1ccc(Cc2c(C)c(C#N)c3[nH]c4ccccc4n3c2=O)cc1 |  | MIC90 | V2475 |  |  | resazurin |  | 16 µg/mL
NC(=O)NN=C1CSSC1 |  | MIC | H37Rv |  |  | BACTEC |  | 12.5 µg/mL
Cc1csc([C@](C)(O)c2nnc(Nc3ccn(Cc4c(F)cccc4F)n3)s2)n1 |  | MIC | G96V |  |  |  |  | >25 µg/mL
O=C(N=Nc1c(O)[nH]c2ccccc12)c1ccc(F)cc1 |  | inhibition | H37Rv |  | 6.25 µg/mL |  |  | 0%
CC1=NN(c2ccc([N+](=O)[O-])cc2)C(=O)C1[N+](=O)[O-] |  | inhibition | H37Rv |  | 12.8 µg/mL | BACTEC |  | 21%
CN1CCN(c2cccc3nc4n(c(=O)c23)-c2ccc(F)cc2C4=O)CC1 |  | MIC | MDR 10038 |  |  |  |  | 5 µg/mL
C=CC(O)C#CC#CC(O)/C=C\CCCCCCCCOC(C)=O |  | MIC90 | Erdman |  |  | resazurin |  | 1.4 µg/mL
NNC(=O)c1ccncc1 |  | MIC | M103I |  |  |  |  | 0.06 µg/mL
CCCC/C=C/c1c(-c2ccccc2)c(-c2ccccc2)n2ccc(C#N)cc12 |  | inhibition | H37Rv |  | 6.25 µg/mL |  |  | 46%
O=C(Oc1cc(Cl)ccc1C(=O)Nc1ccc(F)cc1)c1ccccc1 |  | MIC | 331/88 (H37Rv) |  |  | broth dilution | 14 d | 8 µM
COc1cccc(C(=O)c2ccncc2)c1OC |  | inhibition | H37Rv |  | 6.25 µg/mL | resazurin |  | 4%
CCCSc1nc2ccccc2[nH]1 |  | MIC | My 331/88 |  |  |  |  | 500 µM
O=C1c2cc(I)ccc2-n2c1nc1ccccc1c2=O |  | MIC | MDR 10038 |  |  |  |  | ≤0.2 µg/mL
Cc1ccc2ncn3c4ccccc4nc3c2c1 |  | MIC99 | H37Rv |  |  | resazurin |  | >25 µg/mL
CC1SC(c2ccccc2)=NC(C)(O)C1C |  | EC50 | H37Rv |  |  |  |  | >6.25 µg/mL
O=[N+]([O-])c1ccc(CSc2nc3ccccc3[nH]2)cc1 |  | MIC | My 331/88 |  |  |  |  | >62 µM
COc1cc(/C=N/NC(=O)c2ccc(F)cc2)ccc1O |  | MIC | H37Rv |  |  |  |  | >6.25 µg/mL
CCN(CC)CCNc1ccc(C)c2oc3ccc(O)cc3c(=O)c12 |  | inhibition | H37Rv |  | 12.5 µg/mL | BACTEC |  | 99%
O=C(Oc1ccc(Br)cc1C(=O)Nc1ccc(C(F)(F)F)cc1)c1ccccc1 |  | MIC | Praha 1 |  |  | broth dilution | 21 d | 1 µM
Cc1c(N=Nc2c(S(=O)(=O)[O-])cc3cc(S(=O)(=O)[O-])c(N=Nc4c(C)n(C)n(-c5ccccc5)c4=O)c(O)c3c2O)c(=O)n(-c2ccccc2)n1C.[Na+].[Na+] |  | inhibition | H37Rv |  | 12.8 µg/mL | BACTEC |  | 10%
O=C(N/N=C/c1ccc([N+](=O)[O-])cc1)c1ccc(F)cc1 |  | EC50 | H37Rv |  |  |  |  | >6.25 µg/mL
C[N+](C)(C)CC(=O)N/N=C(\CC1OC(=O)c2ccccc21)c1ccccc1O.[Cl-] |  | MIC bound | H37Rv |  |  | BACTEC |  | >12.5 µg/mL
CC(C)(C)C(=O)Nc1nnc(-c2ccc(Br)cc2)o1 |  | EC90 | H37Rv |  |  | agar |  | <0.2 µg/mL
CCCCc1c(C#N)c(=O)n2c(N)c(C(=O)OCC)cnc2c1SC |  | MIC bound | H37Rv |  |  | resazurin |  | <6.25 µg/mL
O=C1c2ccccc2-n2c1nc1ccc(F)cc1c2=O |  | MIC | MDR 10038 |  |  |  |  | 1.3 µg/mL
O=[n+]1c2ccccc2n([O-])c2ccccc21 |  | inhibition | H37Rv |  | 12.5 µg/mL | BACTEC |  | 100%
C=Cc1ccc(C(=O)Nc2nnc(-c3ccc4c(c3)CCCC4)o2)cc1 |  | EC90 | H37Rv |  |  | agar |  | 1.68 µg/mL
Cc1ccc(C)n1-c1ccc(C(=O)NN2C(=O)c3c(Cl)c(Cl)c(Cl)c(Cl)c3C2=O)cc1 |  | MIC | H37Rv |  |  | resazurin |  | 0.4 µg/mL
CC1CN(c2cc3c(cc2F)C(=O)c2nc4ccccc4c(=O)n2-3)CCN1 |  | MIC | H37Rv |  |  |  |  | >5 µg/mL
O=C(N/N=C/c1cccs1)c1ccc(Br)cc1 |  | EC50 | H37Rv |  |  |  |  | >6.25 µg/mL
O=C(NN1C(=O)C=CC1=O)c1ccc(-n2cccc2)cc1 |  | MIC | H37Rv |  |  | resazurin |  | 6.25 µg/mL
[Cl][Sn]([Cl])([Cl])[Cl].c1cnc2c(c1)ccc1cccnc12 |  | MIC | H37Rv |  |  | BACTEC |  | 12.5 µg/mL
O=C(N/N=C/c1cccs1)c1ccc(F)cc1 |  | inhibition | H37Rv |  | 6.25 µg/mL |  |  | 18%
N#Cc1ccn2c(-c3ccc(Cl)cc3)c(-c3ccc(Cl)cc3)c(Br)c2c1 |  | MIC | H37Rv | VERO |  |  |  | 3.13 µg/mL
COC(=O)C[C@H]1[C@@H](OC(C)=O)[C@H](n2cc(C)c(=O)[nH]c2=O)O[C@@H]1COC(C)=O |  | inhibition | H37Rv |  | 6.25 µg/mL | resazurin |  | -16%
Cc1ccc(C)n1-c1nc(-c2ccc(Cl)cc2Cl)cs1 |  | MIC | H37Rv |  |  | resazurin |  | 0.4 µg/mL
CN(NC(=O)C(=O)NCc1ccco1)C(=O)NC1CCCCC1 |  | MIC bound | H37Rv |  |  | BACTEC |  | >12.5 µg/mL
CCCC1CC(C)(O)N=C(c2ccccc2)S1 |  | inhibition | H37Rv |  | 6.25 µg/mL |  |  | 15%
NNC(=O)c1ccncc1 |  | EC50 | H37Rv (ATCC 27294) |  |  | turbidity |  | 0.12 µg/mL
Cc1cccc(/C=C2/NC(=S)NC2=O)c1 |  | EC50 | H37Rv |  |  |  |  | <6.25 µg/mL
CCCc1nc2ccc(Cl)cc2c2nc3ccccc3n12 |  | MIC99 | H37Rv |  |  | resazurin |  | >25 µg/mL
COC(=O)c1c(C)cc(OC)c(C/C=C(\C)CCCc2coc(C=C(C)C)c2)c1OC |  | MIC bound | H37Rv |  |  | BACTEC |  | >12.5 µg/mL
CCCCC(O)c1c(-c2ccccc2)c(-c2ccccc2)n2ccc(C#N)cc12 |  | MIC | H37Rv | VERO |  |  |  | 3.13 µg/mL
CCCc1nc2ccccc2c2nc3ccccc3n12 |  | MIC99 | H37Rv |  |  | resazurin |  | 0.78 µg/mL
CC1COc2c(N3CCN(C)CC3)c(F)cc3c(=O)c(C(=O)O)cn1c23 |  | MIC90 | 22 isolates |  |  |  |  | 1 µg/mL